Measured values from several laboratories, pooled; numbers as filed in NIAID ChemDB.

All rows: growth or infection tests; organism: Aspergillus niger

Inhibition is in % at the dose shown (toxicity tests: loss of growth or viability). ECn: concentration that inhibits the pathogen or its effect by n%. Zone: diameter of growth inhibition. MIC50, MIC90 and the like: level of inhibition, or share of isolates inhibited. Neighbouring rows are from separate reports. An empty or dashed field is not shown.

compound | strain | method | measure | tested at | result
CC1=C(Cl)C(O)=CC(=O)C12Oc1cc(O)c(Cl)c(C)c1C2=O | MTCC 282 | - | MIC50 | - | 100 µg/mL
Oc1ccc(-c2n[nH]c(COc3nc(C(F)(F)F)nc4ccccc34)n2)cc1 | MTCC 282 | - | MIC100 | - | 25 µg/mL
COc1cccc(/C=C2/S/C(=N/NC(=O)c3sc(NC(=O)c4ccc(F)cc4)nc3C)N(c3ccccc3)C2=O)c1 | MTCC 282 | - | MIC50 | - | 250 µg/mL
CCN1CCN(c2nc3ccc4c(ccc(=O)n4C)c3s2)CC1 | MTCC 282 | - | MIC100 | - | 250 µg/mL
Cc1nc(NC(=O)c2ccc(F)cc2)sc1C(=O)N/N=C1/S/C(=C/c2ccccc2Cl)C(=O)N1c1ccccc1 | MTCC 282 | - | MIC50 | - | 250 µg/mL
CN(C)C=O | - | - | zone | 100 µg/mL | 6 mm
Cc1ccc(-[n+]2noc([O-])c2C(=O)CSc2nc3ccccc3[nH]2)cc1 | - | agar diffusion | EC50 | - | >20 µg/mL
O=c1ccc2c(ccc3nc(N4CCN(C(c5ccccc5)c5ccc(Cl)cc5)CC4)sc32)o1 | MTCC 282 | - | MIC100 | - | 62.5 µg/mL
Clc1ccc(CO/N=C2/c3ccc(Cl)cc3OCC2n2cnnc2)cc1 | ATCC 16401 | - | MFC | - | 64 µg/mL
Cc1ccccc1-[n+]1noc([O-])c1C(=O)CSc1nc2ccccc2[nH]1 | - | agar diffusion | EC50 | - | >20 µg/mL
Cc1nc(NC(=O)c2ccc(F)cc2)sc1C(=O)N/N=C1/S/C(=C/c2ccccc2)C(=O)N1c1ccccc1 | MTCC 282 | - | MIC50 | - | 250 µg/mL
Cc1cc(C=Nc2ccc(N=Cc3cc(C)cc(/C=N/Nc4nc5ccccc5s4)c3O)cc2)c(O)c(/C=C/Nc2nc3ccccc3s2)c1 | - | turbidity | inhibition | 5 µg/mL | 0%
Clc1ccc(-c2n[nH]c(COc3ncnc4ccccc34)n2)cc1 | MTCC 282 | - | MIC100 | - | 12.5 µg/mL
Fc1ccccc1CO/N=C1/c2ccccc2OCC1n1cncn1 | ATCC 16401 | - | MFC | - | 64 µg/mL
CCCCCOc1ccc(-c2cc(-c3ccc(C(=O)N[C@H]4C[C@@H](O)[C@@H](O)NC(=O)[C@@H]5[C@@H](O)[C@@H](C)CN5C(=O)[C@H]([C@H](O)CC(N)=O)NC(=O)[C@H]([C@H](O)[C@@H](O)c5ccc(O)c(OS(=O)(=O)O)c5)NC(=O)[C@@H]5C[C@@H](O)CN5C(=O)[C@H]([C@@H](C)O)NC4=O)cc3)no2)cc1 | - | broth dilution | MIC50 | - | 0.016 µg/mL
c1ccc(CO/N=C2\c3ccccc3OCC2n2cncn2)cc1 | ATCC 16401 | - | MFC | - | 16 µg/mL
Nc1ncccc1-c1cc(Cc2ccc(COc3ccccn3)cc2)no1 | - | broth dilution | MIC50 | - | 0.016 µg/mL
O=C(CSc1nc2ccccc2[nH]1)c1c([O-])on[n+]1-c1ccc(Br)cc1 | - | agar diffusion | EC50 | - | >20 µg/mL
Cc1nc(NC(=O)c2ccc(F)cc2)sc1C(=O)N/N=C1/S/C(=C/c2ccccc2[N+](=O)[O-])C(=O)N1c1ccccc1 | MTCC 282 | - | MIC50 | - | 1000 µg/mL
C/C(=N\NC(=S)Nc1cccc([N+](=O)[O-])c1)c1c(O)ccc2c(C)cc(=O)oc12 | - | agar diffusion / agar | inhibition | 25 µg/mL | 56.66%
COc1cc(-c2n[nH]c(COc3nc(C(F)(F)F)nc4ccccc34)n2)cc(OC)c1OC | MTCC 282 | - | MIC100 | - | 12.5 µg/mL
O=C(CSc1nc2ccccc2[nH]1)c1c([O-])on[n+]1-c1ccc(Cl)cc1 | - | agar diffusion | inhibition | 20 µg/mL | 0%
COc1ccc(-c2n[nH]c(COc3nc(C(F)(F)F)nc4ccccc34)n2)cc1OC | MTCC 282 | - | MIC100 | - | 12.5 µg/mL
Clc1ccc(CO/N=C2\c3ccccc3OCC2n2cncn2)cc1Cl | ATCC 16401 | - | MFC | - | 16 µg/mL
COc1ccc(-[n+]2noc([O-])c2C(=O)CSc2nc3ccccc3[nH]2)cc1 | - | agar diffusion | EC50 | - | >20 µg/mL
Cn1c(=O)ccc2c3sc(N4CCC(Cc5ccccc5)CC4)nc3ccc21 | MTCC 282 | - | MIC100 | - | 250 µg/mL
Cc1nc(NC(=O)c2ccc(F)cc2)sc1C(=O)N/N=C1/S/C(=C/c2cccc(O)c2)C(=O)N1c1ccccc1 | MTCC 282 | - | MIC50 | - | 50 µg/mL
Cn1c(=O)ccc2c3sc(N4CCN(c5ccccn5)CC4)nc3ccc21 | MTCC 282 | - | MIC100 | - | 100 µg/mL
O=C(CSc1nc2ccccc2[nH]1)c1c([O-])on[n+]1-c1ccccc1 | - | agar diffusion | inhibition | 20 µg/mL | 0%

A second listing of 2 rows from above:

compound,strain,method,measure,tested at,result
Cc1ccccc1-[n+]1noc([O-])c1C(=O)CSc1nc2ccccc2[nH]1,-,agar diffusion,EC50,-,>20 µg/mL
Cn1c(=O)ccc2c3sc(N4CCN(c5ccccn5)CC4)nc3ccc21,MTCC 282,-,MIC100,-,100 µg/mL